Source: US20050026235A1 (priority 2003, published 2005)

Protein sequences, listed by entry. Tags and fused reporters are not part of them. Residues count along the entry.
UniProt P09598, 39-283 limits assumed: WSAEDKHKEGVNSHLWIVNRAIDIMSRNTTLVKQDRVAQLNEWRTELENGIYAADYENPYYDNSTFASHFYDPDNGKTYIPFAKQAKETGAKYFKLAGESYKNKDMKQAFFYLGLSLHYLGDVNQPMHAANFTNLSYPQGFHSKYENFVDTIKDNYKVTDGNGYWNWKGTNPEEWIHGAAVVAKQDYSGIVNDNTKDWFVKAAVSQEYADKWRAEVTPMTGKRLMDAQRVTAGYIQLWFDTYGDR

Biological target: PLC from Bacillus cereus (Bacillus cereus, UniProt P09598)
Settings: DOPC/cholesterol/compound 60 (60/20/20) 100 nm LUV, PLC 0.125 nM, Tris saline

Work on “1,2-dioleoyl-sn-glycero-3-phosphoethanolamine-N-(Oregon Green® 488, 5-isomer) [compound 60]” yielded a Vmax of 0.21±0.05 RFU/s and a Km (read-out: observed Km) of 8.6 ± 4.5 nM.
